Measured values from several laboratories, pooled; numbers as filed in NIAID ChemDB.

All rows: whole-cell or culture tests; organism: Mycobacterium bovis BCG

An empty or dashed field is not shown. A number after MIC or MFC names an inhibition level or a share of isolates. Rows are shuffled and stem from different studies.

structure	strain	method	setting	read-out	result
C#CCO	1173P2	resazurin	48 h	MIC	125 µg/mL
NNC(=S)N/N=C/c1cn(Cc2cccc(F)c2)c2ccccc12	1173P2	broth dilution	24 h	MIC100	>500 µg/mL
C#CC(C)(O)CC	1173P2	resazurin	48 h	MIC	125 µg/mL
CCCCCCn1cc(/C=N/Nc2nncs2)c2ccccc21	1173P2	broth dilution	24 h	MIC100	15.63 µg/mL
C[C@H]1COC2(CCN(c3nc(=O)c4cc(C(F)(F)F)cc(C(=O)O)c4s3)CC2)O1	Pasteur	resazurin		MIC99	0.001 µg/mL
CC(C(=O)O)c1ccc2[nH]c3ccc(Cl)cc3c2c1		resazurin / visual reading / absorbance		MIC99	125 µg/mL
CO[C@H]1[C@@H](O)[C@@H](C)O[C@H](O[C@H]2[C@H](Oc3cccc4c(O)c5c(=O)oc6ccc(C)c7c(=O)oc(c34)c5c67)O[C@H](C)[C@H](O)[C@@H]2O)[C@@H]1O	Pasteur			MIC	1.56 µM
O=C(O)Cc1ccc2[nH]c3ccccc3c2c1		resazurin / visual reading / absorbance		MIC99	500 µg/mL
O=C(O)c1cc(C(F)(F)F)cc2c(=O)nc(N3CCN(CC4CCCCC4)CC3)sc12	BN2	resazurin		MIC99	>100 µg/mL
N#Cc1ccc(Cn2cc(/C=N/NC(=S)NN)c3ccccc32)cc1	1173P2	broth dilution	48 h	MIC100	>500 µg/mL
O=C(O)C(Cc1ccc(I)cc1)Nc1nc(-c2ccc(Cl)c(Cl)c2)cs1		agar		MIC95	>50 µg/mL
Cc1ccc(Cn2cc(/C=N/NC(=S)NN)c3ccccc32)cc1	1173P2	broth dilution	48 h	MIC100	>500 µg/mL
FC(F)(F)c1ccc(Oc2ccc(Nc3ncnc4cc[nH]c34)cc2)cc1		luminescence		MIC50	>20 µM
CC1COc2c(N3CCN(C)CC3)c(F)cc3c(=O)c(C(=O)O)cn1c23	Pasteur			MIC	1.56 µM
NNC(=S)N/N=C/c1cn(Cc2ccc(F)cc2)c2ccccc12	1173P2	broth dilution	48 h	MIC100	>500 µg/mL
CC(C(=O)O)c1ccc2c(c1)[nH]c1ccc(N3CCOCC3)cc12		resazurin / visual reading / absorbance		MIC99	>250 µg/mL
C#CC(CCCCC)OC(=O)CCCCCC	1173P2	resazurin	48 h	MIC	62.5 µg/mL
O=C(O)Cc1ccc2[nH]c3ccc(Br)cc3c2c1		resazurin / visual reading / absorbance		MIC99	250 µg/mL
Fc1ccccc1Cn1cc(/C=N/Nc2nncs2)c2ccccc21	1173P2	broth dilution	24 h	MIC100	125 µg/mL
CC(C)=CCC/C(C)=C/Cn1cc(CNC2CCCCCC2)c2cc(F)ccc21		turbidity		MIC90	>50 µM
CCCCCCCC(=O)OC(=O)CCCCCC	1173P2	resazurin	24 h	MIC	125 µg/mL
C(=N\Nc1nncs1)/c1cn(CC2CCC2)c2ccccc12	1173P2	broth dilution	48 h	MIC100	31.25 µg/mL
Cc1ccc2[nH]c3ccc(CC(=O)O)cc3c2c1		resazurin / visual reading / absorbance		MIC99	250 µg/mL
COC(=O)N[C@H]1[C@@H](C)O[C@@H](O[C@H]2C/C=C(\C)C3C=CC4C([C@@H](C)C[C@H](O[C@@H]5C[C@H](C)[C@H](O)[C@@](O)(C6C[C@@H](O)[C@H](O[C@H]7CC[C@@H](OC)[C@H](C)O7)[C@H](C)O6)C5)[C@@H]4O)[C@]3(C)C(O)=C3C(=O)OC4(CC(C=C(CO)[C@@H]4C)/C=C/2C)C3=O)C[C@]1(C)[N+](=O)[O-]	Pasteur			MIC	25 µM
CC(C)(C)c1ccc(CCOc2ncnc3ccccc23)cc1		luminescence		MIC50	>20 µM
C(=N\Nc1nncs1)/c1c[nH]c2ccccc12	1173P2	broth dilution	24 h	MIC100	7.81 µg/mL

Again, the opening 2 rows:

structure | strain | method | setting | read-out | result
C#CCO | 1173P2 | resazurin | 48 h | MIC | 125 µg/mL
NNC(=S)N/N=C/c1cn(Cc2cccc(F)c2)c2ccccc12 | 1173P2 | broth dilution | 24 h | MIC100 | >500 µg/mL